Biological target: EBOV GP ΔTM (residues 1-636; strain Makona) (Zaire ebolavirus (EBOV), strain Makona, …, UniProt A0A068J419)
Conditions: both partners purified

B1: BDBV223 monoclonal antibody (wild type IgG) (antibody, V domains shown)
VH: QVQLQQWGAGLLKPSETLSLTCAVYGGSFTTTYWNWIRQPPGKGLEWIGEVNYSGNANYNPSLKGRVAISVDTSKNQFSLRLNSVTAADTAIYYCTSRIRSHIAYSWKGDVWGKGTTVTVSS
VL: EIVMTQSPGTLSLSPGERATLSCRASQSVPRNYIGWFQQKPGQAPRLLIYGASSRAAGFPDRFSGSGSGTDFTLTITRLEPEDFAMYYCHQYDRLPYTFGQGTKLEIK
B1: binds.

From paper PMC6470140 (Nature Communications, 2019)
